Fitness effects across NS2B and the NS3 protease domain of Zika virus

Source: Ni et al. 2025 (doi:10.1038/s41467-025-63602-z), supplementary data.

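Libraries of single mutants were passaged as virus pools on Huh-7.5 cells. Sequencing of three replicate libraries (two for positions 207-308) was averaged into one effect per change. The aim was to find sites where inhibitor-binding pockets cannot change.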

Protein: NS2B and the protease part of NS3 of Zika virus strain MR766. Positions count along the chain below; NS2B spans 2-131 and NS3 starts at 132.
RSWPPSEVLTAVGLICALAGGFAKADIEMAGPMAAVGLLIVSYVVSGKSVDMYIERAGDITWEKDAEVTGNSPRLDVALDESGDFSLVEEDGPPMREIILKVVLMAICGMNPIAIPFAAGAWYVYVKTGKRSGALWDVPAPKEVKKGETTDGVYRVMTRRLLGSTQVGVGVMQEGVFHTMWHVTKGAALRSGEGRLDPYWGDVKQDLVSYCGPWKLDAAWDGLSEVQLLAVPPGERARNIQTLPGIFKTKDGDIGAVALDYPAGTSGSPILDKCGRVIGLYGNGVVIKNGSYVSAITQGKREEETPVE

Values are log2 effects on growth: 0 is wild type, lower means poorer growth. Each entry names the wild-type residue, its position and the residue put in its place. Values above 0 are not proof of better growth: six high scorers were tested one by one, five grew less well than wild type and one about as well.

F22N gave -5.77.
F22Y gave -2.91.
P32W gave -5.53.
A35* gave -7.71.
G37N gave -3.23.
G37Y gave -5.25.
I40C gave -0.72.
S49P gave -5.26.
G70K gave -5.63.
D76P gave -6.25.
L79P gave -7.79.
L79Q gave -4.95.
S86V gave -3.13.
E89H gave 0.06.
G92A gave -2.63.
I99W gave -1.29.
I107S gave -3.00.
P112M gave -5.44.
P116N gave -5.47.
T128C gave -5.42.
T128D gave -2.99.
P139F gave -4.78.
P141T gave -2.86.
K145E gave -1.08.
K146Q gave -1.56.
D151P gave -4.93.
R159C gave -4.89.
R159F gave -4.72.
G170R gave -7.16.
M172Q gave -6.29.
H182Q gave -6.21.
A187K gave -4.87.
L189I gave -1.64.
S191Y gave -4.49.
G194I gave -5.78.
D197E gave -5.28.
G201Y gave -5.64.
L223I gave -0.54.
P232W gave -3.58.
R236D gave 0.47.
R238P gave -6.28.
P244C gave -4.24.
G245S gave -6.85.
K248H gave 0.72.
D253V gave -6.38.
I254N gave -6.23.
G264A gave -6.24.
G264W gave -6.22.
S266E gave -5.50.
P269D gave -4.32.
I270W gave -4.44.
K273I gave -3.03.
V277D gave -3.95.
Y281K gave -5.32.
G282W gave -4.12.
N283L gave -6.46.
G284I gave -4.05.
G284M gave -5.05.
K288Q gave -1.75.
Y292E gave -4.21.
V293R gave -6.33.
S294E gave -4.79.
E303L gave -0.99.
E303V gave -1.00.
P306H gave -0.91.
V307P gave -1.01.
V307Y gave -0.87.
E308G gave -1.27.
E308I gave -0.39.

The opening 5 entries, copied out:

| change | effect (log2) |
|---|---|
| F22N | -5.77 |
| F22Y | -2.91 |
| P32W | -5.53 |
| A35* | -7.71 |
| G37N | -3.23 |

An asterisk is a stop codon; stop codons read about -7, near the floor of the assay. Positions 1-103, 104-206 and 207-308 were made and measured as separate libraries. Position 1 still belongs to NS2A. In the paper, -1 or higher counts as tolerated.